{
  "source": "ChEMBL document CHEMBL5321277",
  "about": "“Discovery and Mechanism Study of SARS-CoV-2 3C-like Protease Inhibitors with a New Reactive Group” (J Med Chem, 2023)",
  "molecular_target": "Replicase polyprotein 1ab (Severe acute respiratory syndrome coronavirus 2) (UniProt P0DTD1)",
  "assay": "Inhibition of N-terminal His6-tagged recombinant full length SARS-CoV-2 3CLpro expressed in Escherichia coli BL21(DE3) assessed as Kobs, ratio of Kinact/Ki using MCA-AVLQSGFR-Lys(Dnp)-Lys-NH2 as fluorogenic substrate incubated for 3 hrs by FRET assay",
  "data": [
    {"smiles": "N#CSCC(=O)N1c2ccccc2CCc2ccc(Cl)cc21", "values": [
      {"measurement": "Kobs", "result": 1130, "unit": "M⁻¹ s⁻¹"}
    ]}
  ]
}
